Results: publication PMC10779311, “Antileishmanial Activity, Toxicity and Mechanism of Action of Complexes of Sodium Usnate with Lanthanide Ions: Eu(III), Sm(III), Gd(III), Nd(III), La(III) and Tb(III)” (International Journal of Molecular Sciences, 2023)

Experiments:
NIH/3T3 fibroblasts = assay: Cytotoxicity in mammalian cells (sulforhodamine B); assay type: cell-based; settings: IC50 in NIH/3T3 fibroblasts/IC50 on intracellular amastigotes
Description: The cytotoxic effect of compounds 1–7 was evaluated on NIH/3T3 fibroblasts obtained from the Rio de Janeiro Cell Bank (Duque de Caxias, Brazil). Fibroblasts were seeded at […] in 96-well plates. After 24 h of fixation, cells were incubated for 48 h with 1–7 at 2.5–250 µg·mL^−1, in three replicates. Cell growth was evaluated using the sulforhodamine B colorimetric method, and the optical with absorbances read on the PT-READER microplate instrument (Spectramax 190, Molecular Devices, Sunnyvale, CA, USA) at 540 nm. […] The growth inhibition percentage-GI (%) of each test sample was calculated in Microsoft Office Excel 2007 software. IC50 was determined graphically in the Microcal Origin Version 6.00 program. The selectivity index (SI) was calculated as the ratio between the cytotoxicity on cells (IC50) and the activity on the parasite forms (IC50).

[1] = tested on: L. (L.) amazonensis promastigote forms; assay: In vitro antileishmanial activity on promastigote forms (MTT); assay type: cell-based, Leishmania (Leishmania) amazonensis; settings: ratio of IC50 values

## CC(=O)C1=C([O-])C=C2Oc3c(C(C)=O)c(O)c(C)c(O)c3C2(C)C1=O.CC(=O)C1=C([O-])C=C2Oc3c(C(C)=O)c(O)c(C)c(O)c3C2(C)C1=O.CC(=O)C1=C([O-])C=C2Oc3c(C(C)=O)c(O)c(C)c(O)c3C2(C)C1=O.O.O.O.[Eu+3] (stereo not shown) [EuL3·3H2O 4]
NIH/3T3 fibroblasts; listed as EuL3·3H2O
  SI (Ama.): approximately 7.0

## CC(=O)C1=C([O-])C=C2Oc3c(C(C)=O)c(O)c(C)c(O)c3C2(C)C1=O.CC(=O)C1=C([O-])C=C2Oc3c(C(C)=O)c(O)c(C)c(O)c3C2(C)C1=O.CC(=O)C1=C([O-])C=C2Oc3c(C(C)=O)c(O)c(C)c(O)c3C2(C)C1=O.O.O.O.[Nd+3] (stereo not shown) [NdL3·3H2O 5]
NIH/3T3 fibroblasts; listed as NdL3·3H2O
  SI (Ama.): approximately 7.0

## CC(=O)C1=C([O-])C=C2Oc3c(C(C)=O)c(O)c(C)c(O)c3C2(C)C1=O.CC(=O)C1=C([O-])C=C2Oc3c(C(C)=O)c(O)c(C)c(O)c3C2(C)C1=O.CC(=O)C1=C([O-])C=C2Oc3c(C(C)=O)c(O)c(C)c(O)c3C2(C)C1=O.O.O.[Tb+3] (stereo not shown) [TbL3·2H2O 6]
[1]
  activity on promastigotes, times higher than SAU 1: almost a thousand times higher
  activity on promastigotes, times higher than amphotericin B: 63 times
